PubChem BioAssay AID1259414 | Drosophila RNAi Screening Center – 2018
The deposit covers about 24,000 reagents; below is an unselected part of those with a known target gene and a result. In the full data, about 1,210 (5%) are marked active. 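Inactive calls also include excluded dsRNAs with several or no targets, genes unexpressed in JW18, and well A1, regardless of score.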 Names joined by + are all predicted targets of the reagent.

- Purpose: 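Genome-wide screen for host control of endosymbiont load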 (primary screen)
- Cells: Drosophila JW18 cells infected with Wolbachia
- Reagent: long dsRNA against Drosophila genes, 0.25 µg dsRNA per well of a 384-well plate
- Duration: 5 days
- Treatment: cells persistently infected with Wolbachia before knock-down; no added drug
- Detection: 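Imaged fluorescence in situ signal for Wolbachia 23S rRNA per DAPI-counted host cell, given as a robust z-score within each plate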
- Scale: Wolbachia per cell robust z: higher = more Wolbachia per host cell than the plate typical
- Hit rule: 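Hit when robust z is 1.5 or more, or -1.5 or less, in at least two of three replicates; excludes dsRNAs with several or no targets, genes not expressed in JW18 and well A1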

Gene | dsRNA | Wolbachia per cell robust z, rep 1 | Wolbachia per cell robust z, rep 2 | Wolbachia per cell robust z, rep 3 | call
CG10089 (GeneID 39517) | DRSC09695 | -0.342 | 0.168 | -0.796 | inactive
CG10089 (GeneID 39517) | DRSC25988 | -0.158 | 2.79 | 0.0422 | inactive
CG10089 (GeneID 39517) | DRSC41602 | 0.822 | -1.49 | 0.879 | inactive
CG5516 (GeneID 41940) | DRSC15826 | -0.225 | -2.07 | -1.45 | inactive
CG5516 (GeneID 41940) | DRSC21753 | 0.844 | -1.6 | 0.643 | inactive
CG5516 (GeneID 41940) | DRSC27984 | -8.34 | -0.501 | 0.314 | inactive
Glys (GeneID 41823) | DRSC16130 | -0.337 | 1 | 0.637 | inactive
Lmx1a (GeneID 39406) | DRSC09726 | -0.00336 | -0.077 | 0.596 | inactive
Lmx1a (GeneID 39406) | DRSC26224 | 0.633 | -0.0135 | -0.392 | inactive
mt:CoIII (GeneID 19893540) | DRSC40600 | 0.284 | -1.85 | 0.907 | inactive
Hmt-1 (GeneID 41925) | DRSC15555 | 0.873 | -0.144 | 0.0128 | inactive
gNacalpha (GeneID 33279) | DRSC00654 | -0.815 | -1.93 | -0.0409 | inactive
gNacalpha (GeneID 33279) | DRSC29840 | 0.681 | 0.808 | 0.37 | inactive
aru (GeneID 33268) | DRSC00802 | 0.81 | 0.236 | 0.231 | inactive
aru (GeneID 33268) | DRSC22019 | 0.345 | -0.482 | 0.146 | inactive
sut1 (GeneID 35774) | DRSC07700 | 0.0717 | 0.213 | 0.392 | inactive
e(y)2 (GeneID 45848) | DRSC19640 | -0.172 | -0.444 | -2.69 | inactive
CG17002 (GeneID 35610) | DRSC04978 | -3.97 | 0.681 | -1.14 | inactive
CG17002 (GeneID 35610) | DRSC27573 | -0.303 | -1.5 | -1.47 | inactive
Tsp68C (GeneID 117407) | DRSC09295 | -0.196 | -0.543 | -0.832 | inactive
Tsp68C (GeneID 117407) | DRSC28942 | 1.1 | 0.101 | -0.836 | inactive
CG15882 (GeneID 32895) | DRSC19735 | -0.561 | -1 | 0.415 | inactive
CG18170 + CG33791 | DRSC08523 | 0.533 | -1.33 | -0.317 | inactive
CG18170 + CG33791 | DRSC24614 | -2.09 | 2.04 | 0.606 | inactive
CG18170 + CG33791 | DRSC39043 | 0.704 | 0.0678 | 0.372 | inactive
CG18170 + CG33791 | DRSC41266 | 0.138 | 0.134 | -2.58 | inactive
Acsf3 (GeneID 31668) | DRSC18146 | -0.245 | 0.381 | -0.751 | inactive
sff (GeneID 39732) | DRSC10590 | -1.18 | 0.332 | -0.472 | inactive
Ubi-p5E (GeneID 326237) | DRSC41437 | -1.93 | 0.442 | 0.222 | inactive
Ir75b (GeneID 8673994) | DRSC10189 | 0.137 | -0.0244 | 0.338 | inactive
Ir75b (GeneID 8673994) | DRSC41460 | -0.068 | 0.396 | -1.32 | inactive
CAH1 + Adat1 | DRSC02009 | 1.22 | -0.242 | -0.133 | inactive
CG17777 (GeneID 50374) | DRSC18137 | -4.25 | 0.964 | -0.22 | inactive
CG14933 + CG42486 | DRSC02415 | 1.04 | -1.1 | -0.277 | inactive
CG33177 (GeneID 32438) | DRSC19949 | 0.305 | 0.516 | 0.396 | inactive
AANATL6 (GeneID 37212) | DRSC06773 | 0.659 | -0.655 | -2.01 | inactive
AANATL6 (GeneID 37212) | DRSC41518 | 0.425 | 1.32 | -1.14 | inactive
CG32243 (GeneID 317935) | DRSC08105 | -8.83 | 0.519 | -2.39 | active
MFS1 (GeneID 246519) | DRSC04115 | -0.434 | -0.758 | -1.08 | inactive
MFS1 (GeneID 246519) | DRSC27926 | -0.294 | -0.0497 | -0.523 | inactive
smash (GeneID 40583) | DRSC12139 | -2.19 | 0.473 | -1.22 | inactive
smash (GeneID 40583) | DRSC12141 | -0.0811 | -1.56 | -4.69 | active
smash (GeneID 40583) | DRSC12239 | -0.412 | -1.26 | -0.433 | inactive
smash (GeneID 40583) | DRSC12289 | -1.56 | -0.71 | -0.935 | inactive
smash (GeneID 40583) | DRSC27803 | -2.21 | -1.71 | -1.06 | active
side-II (GeneID 3346206) | DRSC01913 | 1.15 | -0.675 | 0.989 | inactive
side-II (GeneID 3346206) | DRSC01932 | -1.83 | -0.706 | -0.221 | inactive
side-II (GeneID 3346206) | DRSC02480 | 1.14 | 0.286 | -0.243 | inactive
side-II (GeneID 3346206) | DRSC22508 | 0.135 | 0.319 | 0.141 | inactive
side-II (GeneID 3346206) | DRSC25118 | 0.925 | 0.178 | 0.85 | inactive
Vps35 (GeneID 37536) | DRSC04519 | 0.105 | 0.402 | 0.199 | inactive
Vps35 (GeneID 37536) | DRSC28790 | 0.0425 | 1.52 | -0.0141 | inactive
CG30375 (GeneID 246575) | DRSC06834 | -0.336 | 1.49 | -0.3 | inactive
Idh3b (GeneID 42586) | DRSC16040 | -0.795 | 0.566 | 0.636 | inactive
Idh3b (GeneID 42586) | DRSC28483 | 0.704 | -0.0577 | -0.0891 | inactive
wfs1 (GeneID 42679) | DRSC15676 | 0.309 | 0.0766 | -5.94 | inactive
CG14131 (GeneID 39328) | DRSC10135 | -0.163 | 0.491 | 0.926 | inactive
CG14131 (GeneID 39328) | DRSC27727 | 1.11 | 1.45 | 0.658 | inactive
PIG-S + sud1 | DRSC14643 | -1.46 | -2.68 | -1.41 | inactive
PIG-S + sud1 | DRSC15952 | -1.12 | 0.411 | -1.28 | inactive
MBD-R2 (GeneID 41498) | DRSC14180 | 0.532 | 0.323 | 0.755 | inactive
Sou (GeneID 37382) | DRSC04356 | -0.364 | -3.43 | -1.33 | inactive
DIP-alpha (GeneID 31322) | DRSC17891 | -0.442 | 0.345 | -0.545 | inactive
DIP-alpha (GeneID 31322) | DRSC23275 | 0.378 | -1.07 | -0.424 | inactive
Btnd (GeneID 31552) | DRSC18316 | -0.74 | -3.68 | 0.72 | inactive
Btnd (GeneID 31552) | DRSC24718 | -2.18 | -0.538 | 0.731 | inactive
Btnd (GeneID 31552) | DRSC38991 | 0.0966 | -1.99 | -3.12 | inactive
sNPF-R (GeneID 40195) | DRSC10836 | -2.15 | -6.28 | 0.866 | inactive

Records above whose target name begins with L or l (2):
Gene | dsRNA | Wolbachia per cell robust z, rep 1 | Wolbachia per cell robust z, rep 2 | Wolbachia per cell robust z, rep 3 | call
Lmx1a (GeneID 39406) | DRSC09726 | -0.00336 | -0.077 | 0.596 | inactive
Lmx1a (GeneID 39406) | DRSC26224 | 0.633 | -0.0135 | -0.392 | inactive
